# Source: PubChem BioAssay AID552 (SRMLSC, 2006)
# Only a part is listed here, and it is no random draw. The source made the active and inactive calls. No stated cut-off is given here; in the data, active means inhibition above about 40%; inactive means the rest.
# Assay: growth inhibitors of wild type E. coli, primary screen, strain BW25113 wild type, absorbance readout (AID 552);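 further: bacteria exposed to compound for 20 hours at 37 °C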
# Conditions: OD600, at 10 µM, active compounds read high
# In short: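 Assay system: Bacterial strain in a whole-cell growth screen | Amount: Inoculum from a 1:1000 dilution of a 1.5 h subculture | Detection: Absorbance at 615 nm as a measure of bacterial growth | Timing: 20 h exposure, 37 °C | Buffer or medium: LB plus kanamycin 50 µg/mL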
row,Compound,inhibition
1,O=P(Nc1nccs1)(c1ccccc1)c1ccccc1,inactive: 6.33%
2,c1nnnn1CCn1cnnn1,inactive: -22.2%
3,COP1(=S)c2c(C)nn(CCC#N)c2N=C(c2ccc(F)cc2)N1C (stereo unspecified),inactive: -2.02%
4,O=C(COc1ccccc1)OC1CN2CCC1CC2 (stereo unspecified),inactive: 6.23%
5,CCOP1(=S)c2c(C)nn(CCC#N)c2N=C(c2ccccc2F)N1C (stereo unspecified),inactive: -2.15%
6,Cc1nn(-c2ccccc2)c2c1P(=O)(N1CCOCC1)N(C)C(c1ccccc1)=N2 (stereo unspecified),inactive: 20.4%
